{
  "source": "patent US11034648B2",
  "about": "“Cystobactamide derivatives” (priority 2017, dated 2021)",
  "key": {"[1]": {"system": "P. aeruginosa ΔmexAB", "conditions": "efflux-deficient strain; small panel, Tables 1a/1b"}, "[2]": {"system": "E. coli ΔtolC", "conditions": "small panel, Tables 1a/1b; no visual growth after approx. 16 h"}, "[3]": {"system": "S. pneumoniae DSM-20566", "experiment": "MIC, microbroth dilution susceptibility assay", "format": "cell-based", "conditions": "large panel, Table 2a; TSB"}, "[4]": {"system": "K. pneumoniae DSM-30104", "experiment": "MIC, microbroth dilution susceptibility assay", "format": "cell-based", "conditions": "large panel, Table 2a"}, "[5]": {"system": "E. aerogenes DSM-30053", "experiment": "MIC, microbroth dilution susceptibility assay", "format": "cell-based", "conditions": "large panel, Table 2a"}, "[6]": {"system": "S. epidermidis DSM-28765", "experiment": "MIC, microbroth dilution susceptibility assay", "format": "cell-based", "conditions": "large panel, Table 2a"}, "[7]": {"system": "S. aureus Newman", "experiment": "MIC, microbroth dilution susceptibility assay", "format": "cell-based", "conditions": "small panel, Tables 1a/1b"}, "[8]": {"system": "P. aeruginosa DSM-46316", "experiment": "MIC, microbroth dilution susceptibility assay", "format": "cell-based", "conditions": "large panel, Table 2a"}, "[9]": {"system": "P. mirabilis DSM-2140", "experiment": "MIC, microbroth dilution susceptibility assay", "format": "cell-based", "conditions": "large panel, Table 2a"}, "[10]": {"system": "A. baumannii DSM-30008", "experiment": "MIC, microbroth dilution susceptibility assay", "format": "cell-based", "conditions": "large panel, Table 2a"}, "[11]": {"system": "E. coli WT DSM-1116", "experiment": "MIC, microbroth dilution susceptibility assay", "format": "cell-based", "conditions": "small panel, Tables 1a/1b; no visual growth after approx. 16 h"}, "[12]": {"system": "E. faecalis ATCC-29212", "experiment": "MIC, microbroth dilution susceptibility assay", "format": "cell-based", "conditions": "large panel, Table 2a; TSB"}, "[13]": {"system": "P. aeruginosa DSM-24600", "experiment": "MIC, microbroth dilution susceptibility assay", "format": "cell-based", "conditions": "large panel, Table 2a"}, "[14]": {"system": "S. marcescens DSM-30121", "experiment": "MIC, microbroth dilution susceptibility assay", "format": "cell-based", "conditions": "large panel, Table 2a"}, "[15]": {"system": "P. aeruginosa WT PA14", "experiment": "MIC, microbroth dilution susceptibility assay", "format": "cell-based", "conditions": "small panel, Tables 1a/1b"}, "[16]": {"system": "E. cloacae DSM-30054", "experiment": "MIC, microbroth dilution susceptibility assay", "format": "cell-based", "conditions": "large panel, Table 2a"}, "[17]": {"system": "P. vulgaris DSM-2140", "experiment": "MIC, microbroth dilution susceptibility assay", "format": "cell-based", "conditions": "large panel, Table 2a"}, "[18]": {"system": "S. aureus ATCC-29213", "experiment": "MIC, microbroth dilution susceptibility assay", "format": "cell-based", "conditions": "large panel, Table 2a"}, "[19]": {"system": "C. freundii DSM-30039", "experiment": "MIC, microbroth dilution susceptibility assay", "format": "cell-based", "conditions": "large panel, Table 2a"}, "[20]": {"system": "E. coli WT", "experiment": "MIC, microbroth dilution susceptibility assay", "format": "cell-based", "conditions": "large panel, Table 2a"}, "[21]": {"system": "E. coli WT-3 [gyrA(S83L,D87G)]", "conditions": "fluoroquinolone-resistant mutant; Table 2a"}},
  "data": [
    {"smiles": "COC(C(N)=O)C(NC(=O)c1ccc(NC(=O)c2ccc([N+](=O)[O-])cc2)cc1)C(=O)Nc1ccc(C(=O)Nc2ccc(C(=O)Nc3ccc(C(=O)O)cc3OC(C)C)c(O)c2OC(C)C)cc1", "note": "(stereo not drawn)", "values": [
      {"measurement": "MIC P. aeruginosa ΔmexAB", "setting": "[1]", "value": 4, "unit": "µg/mL"},
      {"measurement": "MIC E. coli ΔtolC", "setting": "[2]", "value": 0.25, "unit": "µg/mL"},
      {"measurement": "MIC S. pneumoniae DSM-20566", "setting": "[3]", "value": 0.13, "unit": "µg/mL"},
      {"measurement": "MIC K. pneumoniae DSM-30104", "setting": "[4]", "value": ">64", "unit": "µg/mL"},
      {"measurement": "MIC E. aerogenes DSM-30053", "setting": "[5]", "value": ">64", "unit": "µg/mL"},
      {"measurement": "MIC S. epidermidis DSM-28765", "setting": "[6]", "value": 0.25, "unit": "µg/mL"},
      {"measurement": "MIC S. aureus Newman", "setting": "[7]", "value": 0.25, "unit": "µg/mL"},
      {"measurement": "MIC P. aeruginosa DSM-46316", "setting": "[8]", "value": 64, "unit": "µg/mL"},
      {"measurement": "MIC P. mirabilis DSM-2140", "setting": "[9]", "value": ">64", "unit": "µg/mL"},
      {"measurement": "MIC A. baumannii DSM-30008", "setting": "[10]", "value": 8, "unit": "µg/mL"},
      {"measurement": "MIC E. coli WT DSM-1116", "setting": "[11]", "value": 0.5, "unit": "µg/mL"},
      {"measurement": "MIC E. faecalis ATCC-29212", "setting": "[12]", "value": 0.1, "unit": "µg/mL"},
      {"measurement": "MIC P. aeruginosa DSM-24600", "setting": "[13]", "value": 64, "unit": "µg/mL"},
      {"measurement": "MIC S. marcescens DSM-30121", "setting": "[14]", "value": ">64", "unit": "µg/mL"},
      {"measurement": "MIC P. aeruginosa WT PA14", "setting": "[15]", "value": ">64", "unit": "µg/mL"},
      {"measurement": "MIC E. cloacae DSM-30054", "setting": "[16]", "value": ">64", "unit": "µg/mL"},
      {"measurement": "MIC P. vulgaris DSM-2140", "setting": "[17]", "value": 4, "unit": "µg/mL"},
      {"measurement": "MIC S. aureus ATCC-29213", "setting": "[18]", "value": 0.1, "unit": "µg/mL"},
      {"measurement": "MIC C. freundii DSM-30039", "setting": "[19]", "value": 1, "unit": "µg/mL"},
      {"measurement": "MIC E. coli WT", "setting": "[20]", "value": 0.5, "unit": "µg/mL"},
      {"measurement": "MIC E. coli WT-3 [gyrA(S83L,D87G)]", "setting": "[21]", "value": 64, "unit": "µg/mL"}
    ]}
  ]
}
